Compound potency records, mixed from different reports. Data source: NIAID ChemDB in PubChem.

Shared fields: cytotoxicity tests; measure: CC50

An empty or dashed field is not shown. CCn is the concentration with n% toxicity to the cells. Lines come from different laboratories, so protocols vary.

SMILES | cells | method | value
O=C([O-])c1cc(C(=O)[O-])cc(-c2c3nc(c(-c4cc(C(=O)[O-])cc(C(=O)[O-])c4)c4ccc([n-]4)c(-c4cc(C(=O)[O-])cc(C(=O)[O-])c4)c4nc(c(-c5cc(C(=O)[O-])cc(C(=O)[O-])c5)c5ccc2[n-]5)C=C4)C=C3)c1 | MAGI cell | MTT | >100 µM
NNC(=O)c1ccncc1 | Mouse fibroblasts | MTT / absorbance | >200 µg/mL
O=c1[nH]c(=O)n([C@H]2C[C@H](O)[C@@H](CO)O2)cc1/C=C/Br | E6SM | - | >400 µg/mL
N#CCn1ccc(=O)n(Cc2cccc3ccccc23)c1=O | PBMC | - | 270 µM
Cc1cccc(/C=N/NC(=O)COCC(=O)N/N=C/c2cccc(C)c2)c1 | RAW 264.7 | MTT | 44.08 µM
C[C@@H]1O[C@@H](OC[C@H]2O[C@@H](Oc3c(-c4ccc(OS(=O)(=O)O)c(OS(=O)(=O)O)c4)oc4cc(OS(=O)(=O)O)cc(OS(=O)(=O)O)c4c3=O)[C@H](OS(=O)(=O)O)[C@@H](OS(=O)(=O)O)[C@@H]2OS(=O)(=O)O)[C@H](OS(=O)(=O)O)[C@H](OS(=O)(=O)O)[C@H]1OS(=O)(=O)O | TZM-b1 | - | 2800 µM
CCCCCCCCCCCCCCCCCCOCCOP(=O)(O)OC[C@H]1O[C@@H](n2cnc(C(N)=O)n2)[C@H](O)[C@@H]1O | Ava5 | neutral red | 182 µM
O=C(O)P(=O)(O)O | SupT1 | - | 134 µM
Nc1ccn(C[C@@H](CO)OCP(=O)(O)O)c(=O)n1 | HB611 | trypan blue | 60 µg/mL
O=C(O)c1ccc(-c2c3nc(c(-c4ccc(C(=O)O)cc4)c4ccc([nH]4)c(-c4ccc(C(=O)O)cc4)c4nc(c(-c5ccc(C(=O)O)cc5)c5ccc2[nH]5)C=C4)C=C3)cc1 | MAGI cell | MTT | 40 µM
CN(C)c1ccc(O)c2c1C[C@H]1C[C@H]3[C@H](N(C)C)C(=O)C(C(N)=O)=C(O)[C@@]3(O)C(=O)C1=C2O | Microglia | LDH | >30 µg/mL
CO[C@H]1/C=C/O[C@@]2(C)Oc3c(C)c(O)c4c(O)c(c(/C=N/N5CCN(C)CC5)c(O)c4c3C2=O)NC(=O)/C(C)=C\C=C\[C@H](C)[C@H](O)[C@@H](C)[C@@H](O)[C@@H](C)[C@H](OC(C)=O)[C@@H]1C | Lung carcinoma cells | MTT | >30 µM
Nc1nc2c(ncn2CCC(CO)CO)c(=O)[nH]1 | SupT1 | - | 170 µM
CCCCC(O)c1cc(C23CC4CC(CC(C4)C2)C3)c2ccccc2n1 | Mouse fibroblasts | MTT / absorbance | >200 µg/mL
NS(=O)(=O)c1ccc(NC(=O)CCC[Se][Se]CCCC(=O)Nc2ccc(S(N)(=O)=O)cc2)cc1 | A549 | MTT | 20 µg/mL
CCCCn1[se]c2ccccc2c1=O | A549 | visual reading | 5 µg/mL
CC(C)C[C@@H]1NC(=O)[C@H](Cc2c[nH]c3ccccc23)NC(=O)[C@@H](CCCCN)NC(=O)[C@H](CO)NC(=O)[C@H](C(C)C)NC(=O)[C@@H](CC(C)C)NC1=O | Lung carcinoma cells | MTT | >30 µM
Nc1ccn(C[C@H]2COP(=O)(O)CO2)c(=O)n1 | CBMC | MTT | 152 µM
CC(C)CN(C[C@@H](O)[C@H](Cc1ccc(F)cc1)NC(=O)O[C@H]1CCO[C@H]2OCC[C@H]21)S(=O)(=O)c1ccc2nc(NC(C)C)sc2c1 | KG-1-C | MTT | >100 µM
OC(c1ccccc1)c1cc(C23CC4CC(CC(C4)C2)C3)c2ccccc2n1 | Mouse fibroblasts | MTT / absorbance | >200 µg/mL
C=CC/C=C\C/C=C\CCCCCCCc1cccc(O)c1O | PC-3 | WST | 4.53 µM
O=C1CN=C(c2ccccc2)c2ccccc2N1CCC1CC(Br)=NO1 | J774.1 macrophage cell line | resazurin / absorbance | 22.3 µM
CC(O)/C=C/C=C/C=C\CCCCCCCc1cccc(O)c1O | PC-3 | WST | 86.31 µM
Nc1ccn([C@H]2C=C[C@@H](CO)O2)c(=O)n1 | HB611 | trypan blue | 200 µg/mL
C[C@@H]1C[C@H](C)C[C@H](C)[C@@H](O)CC(=O)O[C@@H](C2CCC[C@H]2C(=O)O)C/C=C/C=C(/CN)[C@H](O)[C@@H](C)C1 | MCR-5 | MTT | 0.201 µg/mL
N#CCc1c(N)nc(N)nc1OCCOCP(=O)(O)O | HEPAD79 | - | >330 µM
O=Nc1c(O)[nH]c2ccccc12 | RAW 264.7 | MTT / absorbance | 42.62 µM
O=C(COCC(=O)N/N=C/c1ccccc1[N+](=O)[O-])N/N=C/c1ccccc1[N+](=O)[O-] | RAW 264.7 | MTT | 13.97 µM
CN(C)CCn1[se]c2ccccc2c1=O | A549 | visual reading | 1.22 µg/mL
Cc1cn2c(C(=O)Nc3ccc(Oc4cccc(C(F)(F)F)c4)cc3)c(C)nc2s1 | VERO E6 | luminescence | >50 µM
Cc1cc(OCCOCP(=O)(O)O)nc(N)n1 | HepAD38 | - | >380 µM
O=C(O)c1cc(O)cc(O)c1N=Nc1ccc(/C=C/c2ccc(N=Nc3c(O)cc(O)cc3C(=O)O)cc2S(=O)(=O)O)c(S(=O)(=O)O)c1 | Macrophage | - | 160 µg/mL
CCCCCCCCCCCCCCCO[P@]1(=O)OC[C@@H]2COC(=O)C2=C(CCCC)O1 | HEK293T | resazurin | >50 µM
O=C(COCC(=O)N/N=C/c1ccccc1F)N/N=C/c1ccccc1F | RAW 264.7 | MTT | 36.34 µM
COc1ccc(C2CNC(=O)C2)cc1OC1CCCC1 | A3.5 | - | >>100 µM
OC(c1ccc(F)cc1)c1cc(C23CC4CC(CC(C4)C2)C3)c2ccccc2n1 | Mouse fibroblasts | MTT / absorbance | >200 µg/mL
O=C(COCC(=O)N/N=C/c1cccc(OCc2ccccc2)c1)N/N=C/c1cccc(OCc2ccccc2)c1 | RAW 264.7 | MTT | 26.24 µM
C[C@@H](COc1cc(N)nc(N)n1)OCP(=O)(O)O | HepAD38 | - | >360 µM
Nc1ncnc2c1ncn2[C@H]1C[C@@H](O)[C@@H](CO)O1 | ATH8 | - | >100 µM
N#CCn1ccc(=O)n(Cc2c(F)cccc2F)c1=O | PBMC | - | >451 µM
Cc1cn([C@H]2C[C@H](OS(C)(=O)=O)[C@@H](CO)O2)c(=O)[nH]c1=O | ATH8 | - | >100 µM
O=S(=O)(NC1CCN(Cc2ccncc2)CC1)c1ccc(-n2cccn2)cc1 | THP-1 | - | 32 µM
C[C@H]1C(=O)CC[C@@H]2[C@]1(C)CC[C@H]1[C@@]2(C)CC[C@@]2(C)C[C@](C)(CCC(=O)O)CC[C@]12C | Hep2.2.15 | sulforhodamine | 170.5 µM
CC(C)OC(=O)[C@H](C)N[P@](=O)(OC[C@H]1O[C@@](C#N)(c2ccc3c(N)ncnn23)[C@](C)(O)[C@@H]1OC(=O)C(C)C)Oc1ccccc1 | Lunet-CD81 | ATP | >50 µM
CC(C)CN(C[C@@H](O)[C@H](Cc1cc(F)cc(F)c1)NC(=O)O[C@H]1CCO[C@H]2OCC[C@H]21)S(=O)(=O)c1ccc2nc(NC(C)C)sc2c1 | HKBMM | MTT | >100 µM
C(=Nc1ccccc1[Se][Se]c1ccccc1N=Cc1ccccc1)c1ccccc1 | A549 | MTT | 10 µg/mL
Nc1nc(-c2ccc(Br)cc2Br)c(SCC(=O)Nc2ccccc2N)s1 | MDCK cells | MTS | 42.26 µM
COC(=O)Cn1[se]c2ccccc2c1=O | A549 | visual reading | 6.1 µg/mL
Nc1cc(OCCOCP(=O)(O)O)ncn1 | HEPAD79 | - | >402 µM
Nc1ncnc2c1ncn2[C@@H]1C[C@H](CO)[C@@H](O)[C@@H]1O | HB611 | trypan blue | 14 µg/mL
Cc1cn([C@H]2C[C@H](OCC(=O)O)[C@@H](CO)O2)c(=O)[nH]c1=O | ATH8 | - | >100 µM
Nc1ncnc2c1ncn2C[C@@H](CO)OCP(=O)(O)O | CBMC | MTT | 21 µM
Nc1ncnc2c1ncn2CCOCP(=O)(O)O | CD4+ T lymphocytes | - | 54 µM
NNC(=O)c1cc(CC2CC3CCC2C3)c2ccccc2n1 | Mouse fibroblasts | MTT / absorbance | >200 µg/mL
CCn1[se]c2ccccc2c1=O | A549 | visual reading | 3 µg/mL
CO[C@H]1C[C@H](n2cc(/C=C/Br)c(=O)[nH]c2=O)O[C@@H]1COP1(=O)OCc2cccc(C)c2O1 | P3HR-1 | - | >100 µg/mL
Nc1ncnc2c1ncn2CCOCP(=O)(O)O | CrFK | MTT | 30 µM
Nc1nc2c(ncn2[C@H]2CO[C@@H](CO)O2)c(=O)[nH]1 | 2.2.15 | - | 2000 µM
O=C(CCC[Se][Se]CCCC(=O)Nc1ccc(S(=O)(=O)N2CCCCC2)cc1)Nc1ccc(S(=O)(=O)N2CCCCC2)cc1 | A549 | MTT | 275 µg/mL
Cc1cn([C@H]2C[C@H](N=[N+]=[N-])[C@@H](CO)O2)c(=O)[nH]c1=O | ATH8 | - | 45 µM
COC(=O)[C@]1(O)C[C@@H]2O[C@@]1(C)n1c3ccccc3c3c4c(c5c6ccccc6n2c5c31)C(=O)NC4 | Akata | - | 0.18 µM
Nc1nc(OCCOCP(=O)(O)O)cc(=O)[nH]1 | HepAD38 | - | >329 µM
CCCN1[Se]c2ccccc2NC1=O | A549 | MTT | 2.5 µg/mL
Cc1ccccc1NC(=O)CSc1sc(N)nc1-c1ccc(Br)cc1Br | MDCK cells | MTS | 50.66 µM
Cc1cc(C)cc(Cn2c(=O)ccn(CCc3ccccc3)c2=O)c1 | PBMC | - | 80 µM
N#Cc1c(N)nc(N)nc1OCCOCP(=O)(O)O | HepAD38 | - | >346 µM
COc1ccc(/C=N/NC(=O)COCC(=O)N/N=C/c2ccc(OC)c(OC)c2C(=O)O)c(C(=O)O)c1OC | RAW 264.7 | MTT | 48.12 µM
Nc1nc(N)c(C=O)c(OCCOCP(=O)(O)O)n1 | HEPAD79 | - | >342 µM
COc1cc2c(cc1OC)[C@H](c1cc(OC)c(OC)c(OC)c1)[C@@H](C)[C@@H](C)C2 | 293T | - | >10 µM
O=c1[nH]c(=O)n([C@H]2C[C@H](O)[C@@H](CO)O2)cc1I | CBMC | MTT | 153 µM
Cl.N#Cc1cc(NC(=O)[C@H]2CCN(C(=O)C(=O)NC3(c4cn[nH]n4)CC(F)(F)C3)C2)ccc1F | HepG2.117 | luminescence | >50 µM
N#CCn1ccc(=O)n(Cc2ccc(-c3ccccc3)cc2)c1=O | PBMC | - | >394 µM
Nc1cc(OCCOCP(=O)(O)O)nc(N)n1 | HEPAD79 | - | >379 µM
Cc1cc(Cn2c(=O)ccn(Cc3c(F)cccc3F)c2=O)cc(C)n1 | PBMC | - | 322 µM
CC(C)C[C@@H]1NC(=O)[C@H](Cc2c[nH]c3ccccc23)NC(=O)[C@@H](CCCCN)NC(=O)CNC(=O)[C@H](C(C)C)NC(=O)[C@@H](CC(C)C)NC1=O | Colorectal carcinoma | MTT | >30 µM
Nc1nc2c(ncn2COCCO)c(=O)[nH]1 | CD4+ T lymphocytes | - | >250 µM
N#CCn1ccc(=O)n(Cc2cccc(C#N)c2)c1=O | PBMC | - | >469 µM
O=c1c2cccn2c2cccc(F)c2n1CCNC(=S)Nc1ccc(Br)cn1 | NSO | - | 980 µM
CC(=O)OC1C(COC(=O)/C=C/c2ccc(O)cc2)OC(COC(=O)/C=C/c2ccc(O)cc2)(OC2OC(COC(=O)/C=C/c3ccc(O)cc3)[C@@H](OC(C)=O)[C@H](O)[C@H]2O)C1OC(=O)/C=C/c1ccc(O)cc1 | C-33A | MTT | 36.84 µg/mL

For reference, 6 entries again:

SMILES,cells,method,value
Cc1cc(OCCOCP(=O)(O)O)nc(N)n1,HepAD38,-,>380 µM
O=Nc1c(O)[nH]c2ccccc12,RAW 264.7,MTT / absorbance,42.62 µM
Cc1cccc(/C=N/NC(=O)COCC(=O)N/N=C/c2cccc(C)c2)c1,RAW 264.7,MTT,44.08 µM
O=c1[nH]c(=O)n([C@H]2C[C@H](O)[C@@H](CO)O2)cc1/C=C/Br,E6SM,-,>400 µg/mL
CCCN1[Se]c2ccccc2NC1=O,A549,MTT,2.5 µg/mL
Nc1ncnc2c1ncn2CCOCP(=O)(O)O,CD4+ T lymphocytes,-,54 µM